The values that follow come from US20240392231A1, “BACTERIOLYSIS METHOD AND BACTERIA DETECTION METHOD” (ASAHI KASEI KABUSHIKI KAISHA, priority 2021, published 2024).

Bounds are passed on as bounds.

The data set is described as follows: Test line intensity of bacteria-free solution (false positives). The settings on record: lysostaphin final concentration exceeding 5.0 μg/ml.

As to “lysostaphin: bacteriolysis enzyme, protein hydrolysis enzyme”, the “test line intensity, no bacteria (false positives)” value is on record as ≥ 10 (DDAO 0.075 mass %, FIG. 4) and ≥ 10 (benzalkonium chloride 0.025 mass %, FIG. 5).
